Measured values from several laboratories, pooled; numbers as filed in NIAID ChemDB.

Shared fields: host cell toxicity; cells: VERO; endpoint: CC50

Conditions beyond the fields shown may differ between rows. CCn: concentration that lowers growth or viability of the cells by n%.

{"SMILES": "CC[C@@H](C(C)C)[C@H](O)[C@@H](O)[C@@H](C)[C@H]1CC[C@H]2[C@@H]3CC(=O)[C@@]4(O)C[C@@H](Br)CC[C@]4(C)[C@H]3CC[C@]12C", "value": "277 µM"}
{"SMILES": "CC(=O)OC[C@H]1O[C@@H](n2ncc(=S)[nH]c2=O)C(OC(C)=O)C1OC(C)=O", "value": "376 µg/mL"}
{"SMILES": "Nc1nccc2c1ncn2[C@@H]1C=C(CO)[C@@H](O)[C@H]1O", "value": ">100 µg/mL"}
{"SMILES": "O=S1(=O)C[C@H](O)[C@H](O)CS1", "value": ">400 µM"}
{"SMILES": "Nc1ncnc2c1ncn2[C@@H]1O[C@H](CO)[C@@H](O)[C@@H]1O", "value": "300 µM"}
{"SMILES": "NC(=O)c1csc([C@@H]2O[C@H](CO)[C@@H](O)[C@H]2O)n1", "value": "90 µg/mL"}
{"SMILES": "Nc1nc(=O)n([C@@H]2O[C@H](CO)[C@@H](O)[C@@H]2O)cc1Cl", "value": ">1000 µM"}
{"SMILES": "CC[C@@H](C(C)C)[C@H](O)[C@@H](O)[C@@H](C)[C@H]1CC[C@H]2[C@@H]3CC(=O)[C@H]4C[C@@H](Br)CC[C@]4(C)[C@H]3CC[C@]12C", "value": "343 µM"}
{"SMILES": "CCC(C)[C@H](NC(=O)OCc1ccccc1)C(=O)NC(CCC(=O)N(C)C)C(=O)CF", "value": ">100 µM"}
{"SMILES": "Nc1nc(=O)n([C@@H]2C=C(CO)[C@@H](O)[C@H]2O)cc1F", "value": "100 µg/mL"}
{"SMILES": "CC[C@@H](C(C)C)[C@@H](O)[C@H](O)[C@@H](C)[C@H]1CC[C@H]2[C@@H]3CC(=O)[C@@]4(O)C[C@H](O)[C@H](O)C[C@]4(C)[C@H]3CC[C@]12C", "value": "40 µM"}
{"SMILES": "CC(=O)OC[C@H]1O[C@@H](n2ncc(=O)[nH]c2=O)[C@H](OC(C)=O)[C@@H]1OC(C)=O", "value": "42 µg/mL"}
{"SMILES": "Nc1nc(=O)n([C@@H]2O[C@H](CO)[C@@H](O)[C@@H]2O)cc1F", "value": "0.6 µM"}
{"SMILES": "Nc1nccc2c1ncn2[C@@H]1C[C@H](CO)[C@@H](O)[C@H]1O", "value": ">100 µg/mL"}
{"SMILES": "O=c1cnn([C@@H]2O[C@H](CO)[C@@H](O)[C@H]2O)c(=O)[nH]1", "value": "8 µg/mL"}
{"SMILES": "Nc1nc(=O)n([C@@H]2O[C@H](CO)[C@@H](O)[C@@H]2F)cc1I", "value": ">1000 µM"}
{"SMILES": "CC(=O)OC[C@H]1O[C@@H](n2ncc(=O)[nH]c2=S)C(OC(C)=O)C1OC(C)=O", "value": ">320 µg/mL"}
{"SMILES": "CC[C@@H](C(C)C)[C@H](O)[C@@H](O)[C@@H](C)[C@H]1CC[C@H]2[C@@H]3CC(=O)[C@@]4(O)C[C@@H](OC(C)=O)CC[C@]4(C)[C@H]3CC[C@]12C", "value": "461 µM"}
{"SMILES": "CC(C)(C)C(=O)OCOP(=O)(COCCn1cnc2c(N)ncnc21)OCOC(=O)C(C)(C)C", "value": ">100 µg/mL"}
{"SMILES": "CC[C@@H](C(C)C)[C@H](O)[C@@H](O)[C@@H](C)[C@H]1CC[C@H]2[C@@H]3CC(=O)[C@H]4C[C@@H](OC(C)=O)CC[C@]4(C)[C@H]3CC[C@]12C", "value": "139 µM"}
{"SMILES": "CC1(C)OC2C(O1)[C@@H](COS(=O)(=O)NC(=O)OC1O[C@H](COCc3ccccc3)[C@@H](OCc3ccccc3)[C@H](OCc3ccccc3)[C@H]1OCc1ccccc1)O[C@H]2n1ncc(=O)[nH]c1=O", "value": ">319 µg/mL"}
{"SMILES": "CN(C)C(=O)CCC(NC(=O)CNC(=O)OCc1ccccc1)C(=O)CF", "value": ">100 µM"}
{"SMILES": "CN[C@H](CC(C)C)C(=O)N[C@H]1C(=O)N[C@@H](CC(N)=O)C(=O)N[C@H]2C(=O)N[C@H]3C(=O)N[C@H](C(=O)N[C@H](C(=O)O)c4cc(O)cc(O)c4-c4cc3ccc4O)[C@H](O)c3ccc(c(Cl)c3)Oc3cc2cc(c3O[C@@H]2O[C@H](CO)[C@@H](O)[C@H](O)[C@H]2O[C@H]2C[C@](C)(N)[C@H](O)[C@H](C)O2)Oc2ccc(cc2Cl)[C@H]1O", "value": ">100 µM"}
{"SMILES": "Nc1ccn([C@@H]2O[C@H](CO)[C@@H](O)[C@@H]2O)c(=O)n1", "value": "0.8 µM"}
{"SMILES": "CC[C@@H](C(C)C)[C@@H](O)[C@H](O)[C@@H](C)[C@H]1CC[C@H]2[C@@H]3CC(=O)[C@H]4C[C@@H](OC(C)=O)CC[C@]4(C)[C@H]3CC[C@]12C", "value": "238 µM"}
{"SMILES": "c1ccc(SSc2ccccn2)nc1", "value": ">400 µM"}
{"SMILES": "Nc1nccc2c1ncn2[C@@H]1C=C(CO)[C@@H](O)[C@H]1O", "value": "0.93 µg/mL"}
{"SMILES": "Cn1c(O)c(N=NC(N)=S)c2ccccc21", "value": ">100 µg/mL"}

Repeating the final 4 entries:

SMILES | value
CC[C@@H](C(C)C)[C@@H](O)[C@H](O)[C@@H](C)[C@H]1CC[C@H]2[C@@H]3CC(=O)[C@H]4C[C@@H](OC(C)=O)CC[C@]4(C)[C@H]3CC[C@]12C | 238 µM
c1ccc(SSc2ccccn2)nc1 | >400 µM
Nc1nccc2c1ncn2[C@@H]1C=C(CO)[C@@H](O)[C@H]1O | 0.93 µg/mL
Cn1c(O)c(N=NC(N)=S)c2ccccc21 | >100 µg/mL